Pooled drug test results. Numbers come from NIAID ChemDB, via PubChem.

All rows: host cell toxicity; cells: VERO; measure: CC50

CCn: concentration that lowers growth or viability of the cells by n%. Blank or dashed fields: not listed here. Neighbouring rows are from separate reports.

compound	method	value
C/C(=N\NC(=O)c1ccncc1)c1cccc(CN(C)C)c1O	-	>20 µM
CCc1nc2ccc(Cl)cn2c1C(=O)NCc1ccc(S(F)(F)(F)(F)F)cc1	-	>32 µM
CCc1nc2ccccc2n1CCCCNc1ccc(-c2ccccn2)cc1	luminescence	22 µM
C/C(=N\NC(=O)c1ccncc1)c1cccc(CN2CCNCC2)c1O	-	>17.68 µM
Nc1nccc2c1ncn2[C@@H]1O[C@H](CO)[C@@H](O)[C@H]1O	trypan blue	125 µM
COc1cccc([C@H](c2cc3cc(Br)ccc3nc2OC)[C@@](O)(CCN(C)C)c2cc(C)nc(C)c2)c1F	-	>10 µg/mL
Cc1c(Cl)ccc2cc(/C=C/C(=O)c3ccc(Cl)cc3)c(Cl)nc12	MTT	24.73 µM
CCc1nc2ccccc2n1CCCNc1ccc(C)cc1	luminescence	31 µM
NC1=CC(=O)c2nc3ccccc3c3ccnc1c23	-	23.5 µM
C/C(=N\NC(=O)c1ccncc1)c1cccc(CN2CCCC2)c1O	-	>18.47 µM
Cc1c(Cl)ccc2cc(/C=C/C(=O)c3ccc(Br)cc3)c(Cl)nc12	MTT	28.07 µM
Nc1nccc2c1ncn2[C@H]1C[C@H](O)[C@@H](CO)O1	trypan blue	>397 µM
Cc1ccc2c(c1)c(N=NC(N)=S)c(O)n2CN1CCN(c2cc3c(cc2F)c(=O)c(C(=O)O)cn3C2CC2)CC1	-	>0.011 µM
CCCCCCCCCCCCCCCC(=O)NS(=O)(=O)OC[C@H]1O[C@@H](n2cnc3c(N)ncnc32)[C@H](O)[C@@H]1O	MTT	0.3 µg/mL
CCc1nc2ccc(C)cc2n1CCCNc1ccc(OC)cc1	luminescence	91 µM
O=S(=O)(CCCC(F)(F)F)Nc1ccc2n[nH]c(Cl)c2c1	-	150 µM
CC(=O)O[C@H]1O[C@@H](SC2=N/C(=C\c3ccccc3)C(=O)N2c2ccccc2)[C@H](OC(C)=O)[C@@H](OC(C)=O)[C@@H]1OC(C)=O	-	>100 µM
O=c1[nH]c(=S)cnn1[C@@H]1O[C@H](CO)C(O)C1O	-	233 µg/mL
N#Cc1ccn2c(-c3ccc(Cl)cc3)c(-c3ccc(Cl)cc3)c(Br)c2c1	-	8.62 µg/mL
NC(=S)NC1N=C(c2ccccc2)SN1	-	>200 µg/mL
C/C(=N\NC(=O)c1ccncc1)c1cccc(CN(c2ccccc2)c2ccccc2)c1O	-	>14.32 µM
CCc1nc2ccccc2n1CCCCNCc1ccccc1	luminescence	>50 µM
CCc1nc2ccc(Cl)cn2c1C(=O)NCc1ccc(N2CCCN(c3ccc(S(F)(F)(F)(F)F)cc3)CC2)cc1	-	>32 µM
Cc1ccc2c(c1)C(=O)C(=O)N2CN1CCN(c2cc3c(cc2F)c(=O)c(C(=O)O)cn3C2CC2)CC1	-	>0.02 µM
CC(C)(C)n1cc(C(=O)O)c(=O)c2cc([N+](=O)[O-])c(N3CCn4cc(C(=O)O)nc4C3)cc21	-	145.9 µM
OC[C@@H]1C[C@H](n2cnc3c(=S)nc[nH]c32)[C@@H](O)[C@H]1O	-	>100 µM
Cc1ccn2c(C(=O)NCc3ccc(N4CCC(NCC5CC5)CC4)c(F)c3)c(C)nc2c1	-	>32 µM
COc1c(N2CCNC(C)C2)c(F)cc2c(=O)c(C(=O)O)cn(C3CC3)c12	-	>155.3 µM
OC[C@H]1O[C@@H](n2ncc(=S)[nH]c2=S)C(O)C1O	-	464 µg/mL
CCc1nc(CC(=O)NN=C(C)C)nn1CC	-	400 µg/mL
CCN(CC)CCCOc1c2ccoc2cc2oc(=O)ccc12	-	5.2 µg/mL
O=C(NC12CC3CC(CC(C3)C1)C2)c1cc(=O)c2c(Br)cccc2[nH]1	visual reading / absorbance	39.87 µM
COc1ccc2c(c1)[C@@H]1C[C@]1(C(=O)N1[C@@H]3CC[C@H]1CN(C)C3)Cn1c-2c(C2CCCCC2)c2ccc(C(=O)NS(=O)(=O)N(C)C)cc21	resazurin	32 µM
CC(C)=CCCC1(C)C=Cc2c(O)c(C(=O)/C=C/c3cc(C=O)ccc3O)cc(CC=C(C)C)c2O1	MTT	88.6 µM
Cc1ccn2c(C(=O)NCc3ccc(NCCOCCNC(=O)OC(C)(C)C)c(F)c3)c(C)nc2c1	-	>32 µM
c1ccc(Oc2ccc(-c3nnc(-c4ccc(Oc5ccccc5)cc4)o3)cc2)cc1	MTT	92.6 µg/mL
O=C1c2cccnc2-c2nccc3c2c1nc1ccccc13	-	<0.14 µM
NC(=O)N=Nc1c(O)n(CN2CCN(c3cc4c(cc3F)c(=O)c(C(=O)O)cn4C3CC3)CC2)c2ccc(Cl)cc12	-	>0.017 µM
CCSC1=CC(=O)c2nc3ccccc3c3ccnc1c23	-	6.8 µM
O=C(O)c1cn(C2CC2)c2cc(N3CCN(C(c4ccccc4)c4ccc(Cl)cc4)CC3)c(F)cc2c1=O	-	>117.5 µM
Nc1nc(=O)n([C@@H]2CC[C@H](CO)O2)cc1F	-	>125 µM
Fc1ccc(/C(Cn2ccnc2)=N\OCc2cccc3ccccc23)cc1	-	6 µg/mL
O=C1C(=O)N(CN2CCN(c3cc4c(cc3F)c(=O)c(C(=O)O)cn4C3CC3)CC2)c2ccc(Br)cc21	-	>0.018 µM
c1ccc(/C(Cn2ccnc2)=N\OCc2cccc3ccccc23)cc1	-	12 µg/mL
COc1ccc(C(=O)/C=C/c2cc3ccc(Cl)c(C)c3nc2Cl)c(Br)c1	MTT	39.99 µM
COc1cccc([C@H](c2cc3cc(Br)ccc3nc2OC)[C@@](O)(CCN(C)C)c2ccncc2C)c1F	-	>10 µg/mL
CCn1nc(CC(=O)NN=C(C)C)nc1C	-	400 µg/mL
COc1ccc(C(=O)/C=C/c2cc3ccc(Cl)c(C)c3nc2Cl)cc1OC	MTT	27.31 µM
Cc1ccn2c(C(=O)NCc3ccc(N4CCS(=O)(=O)CC4)c(F)c3)c(C)nc2c1	-	>32 µM
Cc1[nH]nc2ccc(NS(=O)(=O)CCCC(F)(F)F)cc12	-	160 µM
NNC(=O)Cc1nc2n(n1)CCCCC2	-	80 µg/mL
C/C(=N\NC(=O)c1ccncc1)c1cccc(CN2CCN(C)CC2)c1O	-	>17.2 µM
COc1cccc([C@H](c2cc3cc(Br)ccc3nc2OC)[C@@](O)(CCN(C)C)c2cc(C)cc(C)n2)c1OC	-	>10 µg/mL
CCN(CC)Cc1cc(N(c2cc(C)nc3cc(Cl)ccc23)S(=O)(=O)c2ccc(Cl)s2)ccc1O	resazurin	60.13 µg/mL
Cc1ccc(-c2c(C(O)c3ccccc3)c3cc(C#N)ccn3c2-c2ccc(C)cc2)cc1	-	5.61 µg/mL
Nc1ncnc2c1ncn2C[C@H](O)CO	-	>400 µg/mL
Fc1ccc(/C(Cn2ccnc2)=N/OC/C=C/c2ccccc2)cc1	-	12 µg/mL
CN1CCN(c2cc3c(cc2F)c(=O)c(C(=O)O)cn3C(C)(C)C)CC1c1ccccc1	-	142.9 µM
CC(=O)O[C@H]1C[C@](C)(O)/C=C/C[C@@H](C)/C=C/[C@@]2(C)CC[C@@H](C(C)(C)OC(C)=O)[C@H]12	-	185 µM
CCOc1ccc(-c2c3cc(O)c(=O)cc-3oc3cc(O)c(O)cc23)cc1	MTT	>100 µM
CCCCCCCCCCCCSc1ncnc2c1ncn2CC(=O)OCC	-	>10 µg/mL
CC(C)=CCc1ccc(O)c(=O)cc1C(C)C	MTT	>100 µM
CCn1nc(-c2ccc(Cn3ccc4ccccc43)cc2)nc1C	-	≥80 µg/mL
CCCCCCCCSC1=CC(=O)c2nc3ccccc3c(C)c2C1=O	-	4.9 µM
CC(C)=CCCC1(C)C=Cc2c(ccc(C(=O)/C=C/c3ccc(O)c(C=O)c3)c2O)O1	MTT	9.904 µM
c1ccc(/C(Cn2ccnc2)=N/OCc2cccc3ccccc23)cc1	-	6 µg/mL
O=c1[nH]c(=O)n([C@H]2C[C@H](O)[C@@H](CO)O2)cc1C#Cc1cc2ccc3cccc4ccc(c1)c2c34	MTT	<80 µM
Cc1ccn2c(C(=O)NCc3ccc(N4CCC(Oc5cccc(C(F)(F)F)c5)CC4)c(F)c3)c(C)nc2c1	-	>32 µM
CCc1nc2ccccc2n1CCCCSc1nccs1	luminescence	>50 µM
COc1ccnc([C@](O)(CCN(C)C)[C@@H](c2cc3cc(Br)ccc3nc2OC)c2cccc(OC)c2F)c1	-	>10 µg/mL
Cc1ccn2c(C(=O)NCc3cccc(OC(F)(F)F)c3)c(C)nc2c1	-	>32 µM
Fc1ccc(/C(Cn2ccnc2)=N\OCc2ccccc2)cc1	-	32 µg/mL
COC1=CC(=O)c2nc3ccccc3c3ccnc1c23	-	10.7 µM
NNC(=O)c1ccc(Oc2ccccc2)cc1	MTT	80.7 µg/mL
C/C(=N\NC(=O)c1ccncc1)c1cccc(CN2CCOCC2)c1O	-	>17.63 µM
CCOC(=O)CCSC1=CC(=O)c2nc3ccccc3c(C)c2C1=O	-	15.2 µM
Nc1nccc2c1ncn2[C@H]1CC[C@@H](CO)O1	trypan blue	>429 µM
Cc1cc(C)c(OC(=O)c2ccc(Cl)cc2)c(=O)c(C)c1	MTT	100 µM
COc1cccc([C@H](c2cc3cc(C#N)ccc3nc2OC)[C@@](O)(CCN(C)C)c2ccc(C)nc2)c1F	-	>10 µg/mL
CCc1nc2ccc(OC)cc2n1CCCSc1nnc(-c2ccc(Cl)cc2)o1	luminescence	49 µM
OC[C@H]1O[C@@H](n2nnc3ccnc(Cl)c32)[C@H](O)[C@@H]1O	trypan blue	>370 µM
O=C(OCCNC1=CC(=O)c2nc3ccccc3c3ccnc1c23)c1cnccn1	-	>25 µM
O=C(N/N=C/c1cccc2ccccc12)c1ccc(Oc2ccccc2)cc1	MTT	72.2 µg/mL
COc1cccc([C@H](c2cc3cc(Br)ccc3nc2OC)[C@@](O)(CCN(C)C)c2cnc(C)cc2C)c1F	-	>10 µg/mL
C/C(=N\NC(=O)c1ccncc1)c1cccc(CN2CCCCC2)c1O	-	>17.73 µM
O=c1cnn([C@@H]2O[C@H](COP(=O)(O)O)[C@@H](O)[C@H]2O)c(=O)[nH]1	-	31 µg/mL
COc1nc2ccc(Br)cc2cc1[C@@H](c1cccc(C)c1)[C@@](O)(CCN(C)C)c1cc(C)nc(C)c1	-	>10 µg/mL
CCN(CC)C(=O)C1CCCN(c2cc3c(cc2[N+](=O)[O-])c(=O)c(C(=O)O)cn3C2CC2)C1	-	>146 µM
Nc1nc(=O)n([C@@H]2O[C@H](CO)[C@@H](O)[C@@H]2F)cc1I	-	100 µM
CCc1nc2ccc(Cl)cn2c1C(=O)NCc1ccc(N2CCCN(c3ccc(S(F)(F)(F)(F)F)cc3)CC2)c(F)c1	-	>32 µM
O=C(O)c1cn(C2CC2)c2cc(N3CCC(O)(c4ccc(Cl)cc4)CC3)c([N+](=O)[O-])cc2c1=O	-	>137 µM